In ChEMBL document CHEMBL1275243 (2010):

How the values were obtained:
Bacillus anthracis [1] = test: Antimicrobial activity against Bacillus anthracis A0149 assessed as change in fluorescence threshold cycle at 16 ug/ml after 4 hrs by real-time PCR viability assay relative to control
Bacillus anthracis [2] = test: Antimicrobial activity against Bacillus anthracis A0465 assessed as change in fluorescence threshold cycle at 0.25 ug/ml after 4 hrs by real-time PCR viability assay relative to control
Bacillus anthracis [3] = test: Antimicrobial activity against Bacillus anthracis A0193 assessed as change in fluorescence threshold cycle at 2 ug/ml after 4 hrs by real-time PCR viability assay relative to control
Bacillus anthracis [4] = test: Antimicrobial activity against Bacillus anthracis A0193 assessed as change in fluorescence threshold cycle at 0.12 ug/ml after 4 hrs by real-time PCR viability assay relative to control
Bacillus anthracis [5] = test: Antimicrobial activity against Bacillus anthracis 240 assessed as change in fluorescence threshold cycle at 0.06 ug/ml after 4 hrs by real-time PCR viability assay relative to control
Bacillus anthracis [6] = test: Antimicrobial activity against Bacillus anthracis A0248 assessed as change in fluorescence threshold cycle at 1 ug/ml after 4 hrs by real-time PCR viability assay relative to control
Bacillus anthracis [7] = test: Antimicrobial activity against Bacillus anthracis A0264 assessed as change in fluorescence threshold cycle at 1 ug/ml after 4 hrs by real-time PCR viability assay relative to control
Bacillus anthracis [8] = test: Antimicrobial activity against Bacillus anthracis A0149 assessed as change in fluorescence threshold cycle at 0.06 ug/ml after 4 hrs by real-time PCR viability assay relative to control
Bacillus anthracis [9] = test: Antimicrobial activity against Bacillus anthracis A0465 assessed as change in fluorescence threshold cycle at 4 ug/ml after 4 hrs by real-time PCR viability assay relative to control
Bacillus anthracis [10] = test: Antimicrobial activity against Bacillus anthracis A0264 assessed as change in fluorescence threshold cycle at 0.5 ug/ml after 4 hrs by real-time PCR viability assay relative to control
Bacillus anthracis [11] = test: Antimicrobial activity against Bacillus anthracis A0462 assessed as change in fluorescence threshold cycle at 0.06 ug/ml after 4 hrs by real-time PCR viability assay relative to control
Bacillus anthracis [12] = test: Antimicrobial activity against Bacillus anthracis A0293 assessed as change in fluorescence threshold cycle at 0.5 ug/ml after 4 hrs by real-time PCR viability assay relative to control
Bacillus anthracis [13] = test: Antimicrobial activity against Bacillus anthracis A0102 assessed as change in fluorescence threshold cycle at 0.25 ug/ml after 4 hrs by real-time PCR viability assay relative to control
Bacillus anthracis [14] = test: Antimicrobial activity against Bacillus anthracis A0462 assessed as change in fluorescence threshold cycle at 4 ug/ml after 4 hrs by real-time PCR viability assay relative to control
Bacillus anthracis [15] = test: Antimicrobial activity against Bacillus anthracis A0188 assessed as change in fluorescence threshold cycle at 0.06 ug/ml after 4 hrs by real-time PCR viability assay relative to control
Bacillus anthracis [16] = test: Antimicrobial activity against Bacillus anthracis A0462 assessed as change in fluorescence threshold cycle at 0.25 ug/ml after 4 hrs by real-time PCR viability assay relative to control
Bacillus anthracis [17] = test: Antimicrobial activity against Bacillus anthracis A0293 assessed as change in fluorescence threshold cycle at 0.12 ug/ml after 4 hrs by real-time PCR viability assay relative to control
Bacillus anthracis [18] = test: Antimicrobial activity against Bacillus anthracis A0193 assessed as change in fluorescence threshold cycle at 8 ug/ml after 4 hrs by real-time PCR viability assay relative to control
Bacillus anthracis [19] = test: Antimicrobial activity against Bacillus anthracis A0419 assessed as change in fluorescence threshold cycle at 8 ug/ml after 4 hrs by real-time PCR viability assay relative to control
Bacillus anthracis [20] = test: Antimicrobial activity against Bacillus anthracis A0193 assessed as change in fluorescence threshold cycle at 0.5 ug/ml after 4 hrs by real-time PCR viability assay relative to control
Bacillus anthracis [21] = test: Antimicrobial activity against Bacillus anthracis A0264 assessed as change in fluorescence threshold cycle at 4 ug/ml after 4 hrs by real-time PCR viability assay relative to control
Bacillus anthracis [22] = test: Antimicrobial activity against Bacillus anthracis A0102 assessed as change in fluorescence threshold cycle at 1 ug/ml after 4 hrs by real-time PCR viability assay relative to control
Bacillus anthracis [23] = test: Antimicrobial activity against Bacillus anthracis A0488 assessed as change in fluorescence threshold cycle at 0.06 ug/ml after 4 hrs by real-time PCR viability assay relative to control
Bacillus anthracis [24] = test: Antimicrobial activity against Bacillus anthracis A0149 assessed as change in fluorescence threshold cycle at 0.25 ug/ml after 4 hrs by real-time PCR viability assay relative to control
Bacillus anthracis [25] = test: Antimicrobial activity against Bacillus anthracis A0488 assessed as change in fluorescence threshold cycle at 2 ug/ml after 4 hrs by real-time PCR viability assay relative to control
Bacillus anthracis [26] = test: Antimicrobial activity against Bacillus anthracis 240 assessed as change in fluorescence threshold cycle at 0.12 ug/ml after 4 hrs by real-time PCR viability assay relative to control
Bacillus anthracis [27] = test: Antimicrobial activity against Bacillus anthracis 240 assessed as change in fluorescence threshold cycle at 2 ug/ml after 4 hrs by real-time PCR viability assay relative to control
Bacillus anthracis [28] = test: Antimicrobial activity against Bacillus anthracis A0188 assessed as change in fluorescence threshold cycle at 0.25 ug/ml after 4 hrs by real-time PCR viability assay relative to control
Bacillus anthracis [29] = test: Antimicrobial activity against Bacillus anthracis A0193 assessed as change in fluorescence threshold cycle at 0.06 ug/ml after 4 hrs by real-time PCR viability assay relative to control

| SMILES | deltaCT (Bacillus anthracis [1]) | deltaCT (Bacillus anthracis [2]) | deltaCT (Bacillus anthracis [3]) | deltaCT (Bacillus anthracis [4]) | deltaCT (Bacillus anthracis [5]) | deltaCT (Bacillus anthracis [6]) | deltaCT (Bacillus anthracis [7]) | deltaCT (Bacillus anthracis [8]) | deltaCT (Bacillus anthracis [9]) | deltaCT (Bacillus anthracis [10]) | deltaCT (Bacillus anthracis [11]) | deltaCT (Bacillus anthracis [12]) | deltaCT (Bacillus anthracis [13]) | deltaCT (Bacillus anthracis [14]) | deltaCT (Bacillus anthracis [15]) | deltaCT (Bacillus anthracis [16]) | deltaCT (Bacillus anthracis [17]) | deltaCT (Bacillus anthracis [18]) | deltaCT (Bacillus anthracis [19]) | deltaCT (Bacillus anthracis [20]) | other results |
| --- | --- | --- | --- | --- | --- | --- | --- | --- | --- | --- | --- | --- | --- | --- | --- | --- | --- | --- | --- | --- | --- |
| O=C(O)c1cn(C2CC2)c2cc(N3CCNCC3)c(F)cc2c1=O [CIPROFLOXACIN] | 7.95 | 6.96 | 7.76 | 0.59 | 6.7 | 8.75 | 5.07 | 8.71 | 0.1 | 8.86 | 0.8 | 9.19 | 7.09 | 7.36 | 8.17 | 5.36 | 2.13 | 7.57 | 0.22 | 7.27 | deltaCT (Bacillus anthracis [21]): 6.94; deltaCT (Bacillus anthracis [22]): 7.98; deltaCT (Bacillus anthracis [23]): 2.72; deltaCT (Bacillus anthracis [24]): 7.67; deltaCT (Bacillus anthracis [25]): 7.64; deltaCT (Bacillus anthracis [26]): 1.85; deltaCT (Bacillus anthracis [27]): 8.89; deltaCT (Bacillus anthracis [28]): 0.87; deltaCT (Bacillus anthracis [29]): 7.48 |
| C[C@H]1c2cccc(O)c2C(=O)C2=C(O)[C@]3(O)C(=O)C(C(N)=O)=C(O)[C@@H](N(C)C)[C@@H]3[C@@H](O)[C@@H]21.O [DOXYCYCLINE] | 3.82 | 6.53 | 9.7 | 8.16 | 7.07 | 7.98 | 8.34 | 7.2 | 8.89 | 6.95 | 7.36 | 7.38 | 6.25 | 8.11 | 7.22 | 6.29 | 7.53 | 8.23 | 8.44 | 7.7 | deltaCT (Bacillus anthracis [21]): 7.19; deltaCT (Bacillus anthracis [22]): 7.22; deltaCT (Bacillus anthracis [23]): 8.73; deltaCT (Bacillus anthracis [24]): 5.22; deltaCT (Bacillus anthracis [25]): 7.19; deltaCT (Bacillus anthracis [26]): 6.34; deltaCT (Bacillus anthracis [27]): 6.37; deltaCT (Bacillus anthracis [28]): 5.16; deltaCT (Bacillus anthracis [29]): 8.21 |
